Measured values: patent US20140206628A1 (University of Washington, published 2014)

B1: HB36 [change] (designed binder)
chain: MSNAMDGQQLNRLLLEWIGAWDPFGLGKDAYDVEAEAVLQAVYETEDAFDLAMRIMWIYTFAFNRPIPFPHAQKLARRLLELKQAASSPLPLE
B2: HB36.2 ([change]) (designed binder)
chain: MSNAMDGQQLNRLLLEWIGAWDPFGLGKDAYDVEAEAVLQAVYETEDAFDLAMRIMWIYVFAFNRPIPFPHAQKLARRLLELKQAASSPLPLE
B3: HB80 [change] (designed binder)
chain: MASTRGSGRPWDFSENLAFELALAFTNKDTPDRWANVAQYVSGRTPEEVKKHYEILVEDIKYIESGKVPFPNYRTTGGNMKTDEKRFRNLKIRLE
B4: HB80 [change] (designed binder)
chain: MASTRGSGRPWDFSENLAFELALAFVNKDTPDRWANVAQYVSGRTPEEVKKHYEILVEDIKYIESGKVPFPNYRTTGGNMKTDEKRFRNLKIRLE
B5: HB80 [change] (designed binder)
chain: MASTRGSGRPWDFSENLAFELALAFMNKDTPDRWAKVAQYVSGRTPEEVKKHYEILVEDIKYIESGKVPFPNYRTTGGNMKTDEKRFRNLKIRLE
B6: HA Binder 36 (HB36), original design (designed binder)
chain: MSNAMDGQQLNRLLLEWIGAWDPFGLGKDAYDVEAEAVLQAVYETEDAFDLAMRIMWIYAFAFNRPIPFPHAQKLARRLLELKQAASSPLPLE
B7: HB36.3 (Asp47Ser, Ala60Val) (designed binder)
chain: MSNAMDGQQLNRLLLEWIGAWDPFGLGKDAYDVEAEAVLQAVYETESAFDLAMRIMWIYVFAFNRPIPFPHAQKLARRLLELKQAASSPLPLE
B8: HB80.2 ([change], [change], Delta54-95) (designed binder)
chain: MASTRGSGRPWDFSENLAFELALAFTNKDTPDRWAKVAQYVSGRTPEEVKKHYE
B9: HB80, original design (designed binder)
chain: MASTRGSGRPWDFSENLAFELALAFMNKDTPDRWANVAQYVSGRTPEEVKKHYEILVEDIKYIESGKVPFPNYRTTGGNMKTDEKRFRNLKIRLE
B10: HB36 clone A2 ([change], [change], [change]) (designed binder)
chain: MSNAMDGQQLNRLLLEWIGAWDPFGLGKDAYDVEAEAVLQAVYETELAFDLAMRIMWIYAFAFNRPILFLHAQKLARRLLELKQAASSPLPLE
B11: HB36 clone A4 ([change], [change]) (designed binder)
chain: MSNAMDGQQLNRLLLEWIGAWDPFGLGKDAYDVEAEAVLQAVYETERAFDLAMRIMWIYAFAFNRPIPFLHAQKLARRLLELKQAASSPLPLE
B12: HB36 clone B2 ([change]) (designed binder)
chain: MSNAMDGQQLNRLLLEWIGAWDPFGLGKDAYDVEAEAVLQAVYETEEAFDLAMRIMWIYAFAFNRPIPFPHAQKLARRLLELKQAASSPLPLE
B13: HB36 clone B3 ([change]) (designed binder)
chain: MSNAMDGQQLNRLLLEWIGAWDPFGLGKDAYDVEAEAVLQAVYETERAFDLAMRIMWIYAFAFNRPIPFPHAQKLARRLLELKQAASSPLPLE
B14: HB36 clone B6 ([change]) (designed binder)
chain: MSNAMDGQQLNRLLLEWIGAWDPFGLGKDAYDVEAEAVLQAVYETEWAFDLAMRIMWIYAFAFNRPIPFPHAQKLARRLLELKQAASSPLPLE
B15: HB36 clone C3 ([change]) (designed binder)
chain: MSNAMDGQQLNRLLLEWIGAWDPFGLGKDAYDVEAEAVLQAVYETEHAFDLAMRIMWIYAFAFNRPIPFPHAQKLARRLLELKQAASSPLPLE
B16: HB36 clone C4 ([change], [change]) (designed binder)
chain: MSNAMDGQQLNRLLLEWIGAWDPFGLGKDAYDVEAEAVLQAVYETEHAFDLAMRIMWIYAFAFNRPIPFSHAQKLARRLLELKQAASSPLPLE
B17: HB36 clone D3 ([change], [change]) (designed binder)
chain: MSNAMDSQQLNRLLLEWIGAWDPFGLGKDAYDVEAEAVLQAVYETENAFDLAMRIMWIYAFAFNRPIPFPHAQKLARRLLELKQAASSPLPLE
B18: HB36 clone E1 ([change], [change]) (designed binder)
chain: MSNAMDGQQLNRLLLEWICAWDPFGLGKDAYDVEAEAVLQAVYETEYAFDLAMRIMWIYAFAFNRPIPFPHAQKLARRLLELKQAASSPLPLE
B19: HB36.3 [change] (designed binder)
chain: MSNAMDGQQLNRLLLEWIGAWDPFGLGKDAYDVEAEAVLQAVYETESAADLAMRIMWIYVFAFNRPIPFPHAQKLARRLLELKQAASSPLPLE
B20: HB36.3 [change] (designed binder)
chain: MSNAMDGQQLNRLLLEWIGAWDPFGLGKDAYDVEAEAVLQAVYETESAFDLAARIMWIYVFAFNRPIPFPHAQKLARRLLELKQAASSPLPLE
B21: HB36.3 [change] (designed binder)
chain: MSNAMDGQQLNRLLLEWIGAWDPFGLGKDAYDVEAEAVLQAVYETESAFDLAMRIMAIYVFAFNRPIPFPHAQKLARRLLELKQAASSPLPLE
B22: HB80.1 [change] (designed binder)
chain: MASTRGSGRPWDASENLAFELALAFTNKDTPDRWAKVAQYVSGRTPEEVKKHYEILVEDIKYIESGKVPFPNYRTTGGNMKTDEKRFRNLKIRLE
B23: HB80.1 [change] (designed binder)
chain: MASTRGSGRPWDFSENLAFELALAATNKDTPDRWAKVAQYVSGRTPEEVKKHYEILVEDIKYIESGKVPFPNYRTTGGNMKTDEKRFRNLKIRLE
B24: HB80.1 [change] (designed binder)
chain: MASTRGSGRPWDFSENLAFELALAFTNKDTPDRWAKVAQAVSGRTPEEVKKHYEILVEDIKYIESGKVPFPNYRTTGGNMKTDEKRFRNLKIRLE
B25: HB80.3_02 (designed binder)
chain: MASTRGSGRPWKFSENIAFEIALSFTNKDTPDRWKKVAQYVKGRTPEEVKKHYE
B26: HB80.3_s4_E81 (designed binder)
chain: MASTRGSGRPWRFSENVAFEIALSFTNKDTPDRWKKVARYVRGRTPEEVKKHYE
B27: HB80.3_s4_E83 (designed binder)
chain: MASTRGSGRPWGFRENIAFEIALYFTNKDTPDRWRKVARYVKGRTPEEVKKHYE
B28: HB80.3_s4_E84 (designed binder)
chain: MASTRGSGRPWRFSENVAFEIALSFTNKDTPDRWRKVARYVRGRTPEEVKKHYE
B29: HB80.3_s4_E85 (designed binder)
chain: MASTRGSGRPWGFSENIAFELALYFTNKDTPDRWGKVARYVRGRTPEEVKKHYE
B30: HB80.3_s4_E86 (designed binder)
chain: MASTRGSGRPWKFSENVAFELALYFTNKDTPDRWKKVARYVKGRTPEEVKKHYE
B31: HB80.3_s4_E87 (designed binder)
chain: MASTRGSGRPWKFSENIAFELALYFTNKDTPDRWKKVARYVKGRTPEEVKKHYE
B32: HB80.3_s4_E88 (designed binder)
chain: MASTRGSGRPWKFKENLEFEIALSFTNKDTPDRWKKVAYYVRGRTPEEVKKHYE
B33: HB80.3_s4_E90 (designed binder)
chain: MASTRGSGRPWKFSENVAFELALYFTNKDTPDRWTKVARYVKGRTPEEVKKHYE
B34: HB80.3_s4_E92 (designed binder)
chain: MASTRGSGRPWKFSENVAFEIALSFTNKDTPDRWRKVARYVRGRTPEEVKKHYE
B35: HB80.3_s4_E93 (designed binder)
chain: MASTRGSGRPWKFSENVAFELALYFTNKDTPDRWGKVAQYVRGRTPEEVKKHYE
B36: HB80.3_s4_E96 (designed binder)
chain: MASTRGSGRPWKFSENVAFEIALSFTNKDTPDRWRKVAYYVRGRTPEEVKKHYE
B37: HB80.3_s4_E98 (designed binder)
chain: MASTRGSGRPWRFSENVAFEIALSFTNKDTPDRWAKVARYVRGRTPEEVKKHYE
B38: HB80.3_s4_E99 (designed binder)
chain: MASTRGSGRPWKFSENLAFELALYFTNKDTPDRWAKVAYYVKGRTPEEVKKHYE
B39: HB80.3_s4_E100 (designed binder)
chain: MASTRGSGRPWRFSENVAFEIALSFTNKDTPDRWKKVARYVKGRTPEEVKKHYE
B40: HB80.3_s5_E01 (designed binder)
chain: MASTKGSGKPWKFSENVAFEIALSFTNKDTPDRWRKVARYVRGKTPEEVKKHYE

biological target: T1, A/South Carolina/1/1918 (H1N1) hemagglutinin ectodomain, biotinylated (Influenza A virus A/South …)

Q: With B1 as the binder, how does the “fold improvement of affinity relative to HB36” value read?
A: The value was over 10 fold.

Q: What about the “fold increase of apparent binding affinity relative to HB36” value of the same binder?
A: The value was 25 fold.

Q: B2 was tested. Which “fold improvement of affinity relative to HB36” value did it give?
A: The value was over 10 fold.

Q: And the “fold increase of apparent binding affinity relative to HB36” value?
A: Its value is 25 fold.

Q: B3 was tested. Which “fold improvement of affinity relative to HB80” value did it give?
A: Its value is over 10 fold.

Q: B4 was tested. Which “fold improvement of affinity relative to HB80” value did it give?
A: Its value is over 10 fold.

Q: How did the “fold improvement of affinity relative to HB80” value turn out when B5 was run?
A: The value was over 10 fold.

biological target: T1, A/South Carolina/1/1918 (H1N1) …; remark: another data set of the same source

Q: Which Kd does the source give for B6 here?
A: The Kd was 0.2 µM and > 2 µM.

Q: How did the Kd turn out when B2 was run?
A: Its Kd is 0.008 µM.

Q: B7 was tested. Which Kd did it give?
A: Its Kd is 0.004 µM and 0.029 µM.

Q: How did the Kd turn out when B8 was run?
A: Its Kd is 0.005 µM.

Q: How did the Kd turn out when B3 was run?
A: Its Kd is 0.1 µM.

Q: For B5, which Kd is on record?
A: The Kd was 0.3 µM.

Q: B9 was tested. Which Kd did it give?
A: The Kd was over 5 µM.

biological target: T1, A/South Carolina/1/1918 (H1N1) …; remark: another data set of the same source

Q: For B10, which Kd is on record?
A: The Kd was 0.005 to 0.015 µM.

Q: For B11, which Kd is on record?
A: The Kd was 0.005 to 0.015 µM.

Q: With B12 as the binder, how does the Kd read?
A: The Kd was 0.015 to 0.04 µM.

Q: For B13, which Kd is on record?
A: The Kd was 0.015 to 0.04 µM.

Q: B14 was tested. Which Kd did it give?
A: The Kd was 0.005 to 0.015 µM.

Q: How did the Kd turn out when B15 was run?
A: The Kd was 0.002 to 0.005 µM.

Q: Which Kd does the source give for B16 here?
A: Its Kd is 0.002 to 0.005 µM.

Q: How did the Kd turn out when B17 was run?
A: The Kd was 0.005 to 0.015 µM.

Q: Which Kd does the source give for B18 here?
A: Its Kd is 0.005 to 0.015 µM.

biological target: T1, A/South Carolina/1/1918 (H1N1) …; remark: another data set of the same source

Q: With B7 as the binder, how does the Kd read?
A: The Kd was 0.029 µM.

Q: And the kon?
A: Its kon is 1.2e+06 M⁻¹ s⁻¹.

biological target: T1, A/South Carolina/1/1918 (H1N1) …; remark: another data set of the same source

Q: Which Kd does the source give for B7 here?
A: Its Kd is 0.005 µM.

Q: B19 was tested. Which ΔΔG did it give?
A: The ΔΔG was over 14.2 kJ/mol.

Q: What does the source list for B20?
A: Kd: 0.115 µM; ΔΔG: 7.53 kJ/mol

Q: How did the ΔΔG turn out when B21 was run?
A: Its ΔΔG is over 14.2 kJ/mol.

Q: For B22, which ΔΔG is on record?
A: The ΔΔG was over 12.1 kJ/mol.

Q: How did the ΔΔG turn out when B23 was run?
A: The ΔΔG was over 12.1 kJ/mol.

Q: B24 was tested. Which Kd did it give?
A: The Kd was 0.14 µM.

Q: What about the ΔΔG of the same binder?
A: Its ΔΔG is 7.11 kJ/mol.

biological target: T1, A/South Carolina/1/1918 (H1N1) …; remark: another data set of the same source

Q: Does B25 bind?
A: Result: binds

Q: Does B26 bind?
A: Result: binds

Q: Does B27 bind?
A: Result: binds

Q: Does B28 bind?
A: Result: binds

Q: Does B29 bind?
A: Result: binds

Q: Does B30 bind?
A: Result: binds

Q: Does B31 bind?
A: Result: binds

Q: Does B32 bind?
A: Result: binds

Q: Does B33 bind?
A: Result: binds

Q: Does B34 bind?
A: Result: binds

Q: Does B35 bind?
A: Result: binds

Q: Does B36 bind?
A: Result: binds

Q: Does B37 bind?
A: Result: binds

Q: Does B38 bind?
A: Result: binds

Q: Does B39 bind?
A: Result: binds

Q: Does B40 bind?
A: Result: binds

“And” between values parts separate entries of the source, which are not always exact repeats. Equal entries are not always repeated.
